Results published in patent US5968910A, “Compositions containing two or three inhibitors of different HIV reverse transcriptases” (priority 1994, dated 1999).

Test system: reverse transcriptase of mutant HIV-1 strains
Experiment: Characterization of RT mutations of mutant HIV-1 strains selected under the compounds (PCR, sequencing)
Assay type: cell-based
[1] = selection concentration not stated

## CC1=C(C(=O)Nc2ccc(Cl)c(C(=O)OC(C)C)c2)SCCO1 [Compound A]
[1]
  Amino acid mutation in RT selected: Glu→Lys
  Amino acid position of RT mutation selected: 138
  Codon change in RT selected: GAG→AAG

## CC(C)OC(=O)c1cc(NC(=S)OC(C)C)ccc1Cl [Compound B]
[1]
  Amino acid mutation in RT selected: substitution of Lys (AAA) by Glu (GAA)
  Amino acid position of RT mutation selected: 101
  Codon change in RT selected: AAA→GAA

## Cc1occc1C(=S)Nc1ccc(Cl)c(C(=O)OC2CCCCC2)c1 [Compound III]
Selected at 0.1 μg/ml
  Amino acid mutation in RT selected: Lys→Asn
  Amino acid position of RT mutation selected: 103
  Codon change in RT selected: AAA→AAC

## Cc1occc1C(=S)Nc1ccc(Cl)c(C(=O)OCC(C)C)c1 [Compound II]
Selected at 0.1 μg/ml
  Amino acid mutation in RT selected: Leu→Ile
  Amino acid position of RT mutation selected: 100
  Codon change in RT selected: TTA→ATA

## Cc1occc1C(=S)Nc1ccc(Cl)c(C(=O)OC2CCCC2)c1 [Compound IV]
Selected at 0.1 μg/ml
  Amino acid mutation in RT selected: 103 Lys→Thr and Lys→Thr
  Amino acid position of RT mutation selected: 103
  Codon change in RT selected: AAA→ACA

## Cc1occc1C(=S)Nc1ccc(Cl)c(C=NOC(C)(C)C)c1 [Compound I]
Selected at 0.1 μg/ml
  Amino acid mutation in RT selected: Lys→Asn
  Amino acid position of RT mutation selected: 103
  Codon change in RT selected: AAA→AAC

## O=C(OC1CCCCC1)c1cc(NC(=S)c2ccsc2)ccc1Cl [Compound V]
Selected at 0.1 μg/ml
  Amino acid mutation in RT selected: 101-Lys→Ile and 141-Gly→Glu and Lys→Ile and Gly→Glu
  Amino acid position of RT mutation selected: 101 and 141
  Codon change in RT selected: AAA→ATA; also recorded: GGG→GAG
Selected at 0.5 μg/ml
  Amino acid mutation in RT selected: Lys→Asn
  Amino acid position of RT mutation selected: 103
  Codon change in RT selected: AAA→AAC

Where “and” joins values, the source holds several entries; their conditions need not be identical. Equal values may be shown once. Entries after “also recorded” stand apart in the source; their conditions may differ.
